Each number is a percent effect as filed.
The record does not define 0% and 100%; most values in the screen are far below 50% and negative numbers occur (in some assays of this library far below -100).
Many other results are left out here, so strong results are more common than in the screen.
A dash means the value is not listed here; it may have been measured.

Mtb cholesterol medium: 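Growth of Mycobacterium tuberculosis over 4 days (cholesterol / DPPC medium with tyloxapol); the read-out is not stated. Tested at 500 µM. Higher reads as more growth inhibition (inferred: compounds with an IC50 in retests scored well above the rest). Of about 18,000 compounds tested this way, about 900 (5%) reached 50% or more in at least one test.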
Mtb glucose medium: 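Whole-cell growth test on Mycobacterium tuberculosis, read after 3 days in glucose-containing 7H9 medium; the read-out is not stated. Tested at 500 µM. Direction is inferred from retests: higher values go with more growth inhibition. Of about 18,000 compounds tested this way, about 1,400 (7.9%) reached 50% or more in at least one test.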

compound	Mtb cholesterol medium	Mtb glucose medium
CN(CCc1cnn(C)c1)C(=O)CN1CCOC1=O	-	8.147
CC1COC2(CCN(c3ccncc3Cl)CC2)O1 (configuration not stated)	-	-6.658
COC(=O)CCSc1nncs1	-	7.075
CC1CCCN(Cc2ccc(CN)cc2)C1 (configuration not stated)	-	21.18
CCNC(=O)[C@@H]1C[C@H](N)CN1C(=O)C1(COC)CCC1	-	3.839
c1cc(SCCOCC2CCCO2)ccn1 (configuration not stated)	-	28.9
OC1(C(F)(F)F)CCNC1 (configuration not stated)	-	-5.269
Cc1cccc(NCC(=O)NC2CCCCC2)n1	-	57.73
CC(=O)c1cc(CN2CC[C@](C)(O)[C@@H](O)C2)n(C)c1	5.675	-
COc1c(Cl)cc(NC(=O)C2COCCN2)cc1Cl (configuration not stated)	51.41	69.66
CCCNC(=O)c1ccccc1NS(=O)(=O)CC	-	4.52
CNC(=O)CCN1CCC(=Cc2ccccc2)CC1	66.54	64.18
NCc1ccncc1OCCC(F)(F)F	-5.605	-
CCS(=O)(=O)NC1CCCNC1 (configuration not stated)	-	0.7982
CNC(=O)C1CCCN(C(=O)c2ccc(O)cc2F)C1 (configuration not stated)	7.45	-
CC1(C)CCC(CO)NC1 (configuration not stated)	-	3.608
O=C1CCN(CCOc2cc(F)cc(Br)c2)CCN1	-	71.76
Cc1cc(O)nc(C2CC2)n1	0.2558	-
OCCNC1CCOCC1	-	2.458
NS(=O)(=O)c1cccc2c1CCCN2Cc1nccs1	9.715	50.34
CS(=O)(=O)N1CCSc2ccc(Cl)cc21	-18.24	-
CCN(CCNS(C)(=O)=O)Cc1cccc2c1OCO2	-	0.3729
CC(C)(C)OC(=O)N1CCC(n2ccc(N)n2)C1 (configuration not stated)	2.835	9.841
Cc1cc(C)c(S(=O)(=O)NCCO)c(C)c1	-10.19	-
CNC(=O)c1cccc(NCCN2CCCC(C)C2)n1 (configuration not stated)	-1.454	-
CC(C)(C)OC(=O)N1CCCC1CN (configuration not stated)	-	69.27
CO[C@@H]1COCC[C@H]1N	-	9.63
CCc1ccc(C(=O)NC(C)c2cccnc2)o1 (configuration not stated)	-	53.68
CN(C)CCC(O)c1ccccc1 (configuration not stated)	1.523	22.33
Cc1cncc(C(=O)NC(CO)CC(C)(C)C)c1 (configuration not stated)	-	8.768
CCCc1noc(CNc2ccccc2C(N)=O)n1	8.138	-5.187
Cc1ncc(C(=O)NCc2ccnn2C)c(O)c1Br	-	-6.104
N#Cc1cccc(C(=O)NCCCn2cccn2)c1	15.93	38.16
COc1c(C)cccc1CN	-	6.58
CCc1nn(C)c(CC)c1S(=O)(=O)N(C)CC(C)O (configuration not stated)	-	1.358
Cc1ccc2c(c1)OC(C)CN2S(C)(=O)=O (configuration not stated)	-	-3.18
O=C(Cc1cn2ccsc2n1)NCc1ccncc1	-28	-20.77
CN(C(=O)OC(C)(C)C)C1CCNC1 (configuration not stated)	-	12.36
Cc1cccn2cc(CNc3ccc(C#N)nc3)nc12	0.1471	-2.407
CC1CCCN(C(=O)CCN2CCOC2=O)C1 (configuration not stated)	-	14.72
OCC1CCCN1c1ncnc2ccc(F)cc12 (configuration not stated)	-	-2.222
CC(C)OCCC(=O)NCC(C)(C)N1CC[S+]([O-])CC1	-	-7.252
COC(=O)c1c[nH]c(SCc2cnc(C)s2)n1	-0.5796	-
CCc1nc(COC2CCNCC2)no1	-0.1058	-
CC(C)COCC(O)CNc1nnc(C(C)C)s1 (configuration not stated)	84.49	66.3
CCc1cc(N2CCCC(N)C2)ncn1 (configuration not stated)	-	49.09
COCCN1CCCC(NC2CCOCC2)C1 (configuration not stated)	-4.46	-
O=C(CCNc1nc2ccccc2o1)N1CCCC1	-	-13.94
Cc1cc(C)c(C#N)c(N2CCOCC(CO)C2)n1 (configuration not stated)	51.12	50.34
O=C1CCC(Nc2nc(-c3ccccc3)ns2)CN1 (configuration not stated)	50.83	-
N[C@H]1CCN(C(=O)c2cc(F)cc(C(F)(F)F)c2)C1	-	7.513
Cc1nc(C)c(CC(=O)NCC(C)C)c(=O)[nH]1	-	-15.05
CNC(=O)C1CCCCN1Cc1cc(OC)ccn1 (configuration not stated)	-8.596	-
CCOCC1CCN(S(C)(=O)=O)CC1	7.336	-
Cn1cc(-c2csc(NC3CCOCC3)n2)cn1	-	31.05
CC(N)CCc1ccc2c(c1)OCO2 (configuration not stated)	51.74	69.76
Clc1ccc(CSc2cnn[nH]2)s1	89.09	73.44
CCOc1cccc2c1OCC(C(=O)N(C)C)C2 (configuration not stated)	-	21.18
O=C(Cc1ccc(-n2cnnn2)cc1)N1CCCCO1	-	8.146
Cc1ccnc(NC(=O)C2CC(=O)N(C3CC3)C2)c1 (configuration not stated)	-	-7.597
CCc1nc(CCNC(=O)[C@@H](N)C(C)(C)C)no1	-	12.63
Cc1ccc(CC(=O)N2CCC3(CC2)OCCO3)cn1	-	32.43
NCCCN1CCN(c2ccccc2F)CC1	104.7	60.25
Cc1ccc(C(C)NC(=O)CN2CCOCC2)nc1 (configuration not stated)	-	9
CCOc1ncccc1CNC(=O)c1sc(C)nc1C	-	27.72
Cc1cc(C(=O)NCCCN2CCOCC2)c(C)o1	-	-0.9746
Cc1cc(=O)[nH]c(CCNC(=O)[C@H]2CC[C@@H](N)C2)n1	-	-5.914
O=C1c2ccccc2C(=O)N1CN1CCCCC1	-	-1.337
COCc1noc(-c2cc(S(N)(=O)=O)cc(C)c2C)n1	1.711	-
COCC1(C(=O)N2CCCC(CC(N)=O)C2)CCC1 (configuration not stated)	-	-0.1719
COc1ncccc1CN(C)S(=O)(=O)c1cccs1	51.08	48.34
NS(=O)(=O)CC1CCOCC1	-	7.782
CN(Cc1cccc(C#N)c1)C(=O)C1CC1	69.74	50.2
Cc1cc(NC(=O)NCC[S+]([O-])C(C)(C)C)no1 (configuration not stated)	-	-4.331
CSCC(CCO)NC(=O)c1cnn(C)c1C (configuration not stated)	1.63	20.34
Cn1cc(CN)c(C(F)(F)F)n1	-3.417	-
CSc1ncc(C(=O)N2CC[C@](C)(O)[C@H](C)C2)cn1	-	-4.927
CC1CCN(CC(=O)N(C)CCc2cnn(C)c2)C1=O (configuration not stated)	-	-14.82
NCC(=O)N1CCCC(CCc2ccc(F)cc2)C1 (configuration not stated)	76.62	78.91
CCNC(=O)[C@@H]1C[C@H](N)CN1c1nc(C)ncc1CC	-	5.842
Cc1ccn2c(C(=O)N[C@@H]3CC[C@@H](N)C3)c(C)nc2c1	-	39.74
CCOc1ccc(S(=O)(=O)NC2CC2)cc1NC(C)=O	-	23.88

Some entries from above, unchanged:

{"compound": "Cc1ccnc(NC(=O)C2CC(=O)N(C3CC3)C2)c1", "stereo": "configuration not stated", "Mtb glucose medium": -7.597}
{"compound": "NCC(=O)N1CCCC(CCc2ccc(F)cc2)C1", "stereo": "configuration not stated", "Mtb cholesterol medium": 76.62, "Mtb glucose medium": 78.91}
{"compound": "CNC(=O)c1cccc(NCCN2CCCC(C)C2)n1", "stereo": "configuration not stated", "Mtb cholesterol medium": -1.454}
{"compound": "CC1COC2(CCN(c3ccncc3Cl)CC2)O1", "stereo": "configuration not stated", "Mtb glucose medium": -6.658}
{"compound": "CCOc1ccc(S(=O)(=O)NC2CC2)cc1NC(C)=O", "Mtb glucose medium": 23.88}

Measurements from “University of Dundee, Small-Polar-MMV Screening Library” (2021), ChEMBL document CHEMBL3988442.